Literature values as cited in patent publication US20030133929A1 (priority 2002, published 2003).

Test system: Sinbis, Sendai and VSV viruses
Conditions: room temperature; cited from earlier work

## CCCCOP(=O)(OCCCC)OCCCC
  minimum time for inactivation of the viruses: 2 h
